Experimental data: patent US11639348B2, “Compositions and methods for neuraminidase detection and quantification” (priority 2018, dated 2023)

Test system: B/Hong Kong/1972 NA

Compound: CC(=O)NC1C(NC(=N)N)C(F)C(Oc2c(F)cc3c(C)cc(=O)oc3c2F)(C(=O)O)OC1[C@H](O)[C@H](O)CO (stereo partly drawn) [compound 3, 5-Acetamido-4-guanidine-3-fluoro-3,4,5-trideoxy-2α-(4-methyl-6,8-difluoromethylumbelliferyl)-D-glycero-D-galactononulopyranosylnoic acid]
- ki/Ki (second-order rate constant) (type B virus, concentrations well below Ki): 300000 M⁻¹ s⁻¹
- ki/Ki of type B relative to N9 (type B vs N9): about 110 fold
